Reference: the supplement of paper PMC9931576
Human monoclonal antibodies against the spike receptor-binding domain (heavy:light variable regions). IC50 against pseudoviruses bearing the spike of naturally observed variants; lower = stronger; >10 µg/ml means not reached at the top dose. No active / inactive call. The stated detection limit is 0.0005 µg/ml; values near or below 0.001 µg/ml lie at the floor of the assay.

B1: BD56-1282 (protein)
chain 1: QVQLVQTGAEVKKPGSSVKVSCKTSGGLIINYAVSWVRQAPGQGLEWMGDIIPILDTTNYAQKFQGRVMISADKSTSTAYLELRSLRFEDTAVYYCAAGGQYCGGGSCYSSYFDYWGQGALVSVSP
chain 2: EIVLTQSPGTLSLSPGERATLSCRASQSISSSHLAWYQQKPGQAPRLLIYGASSRATGIPDRFSGSGSGTDFTLTISRLAPEDFAVYYCHQYGSSPQRTFGQGTKVEIK
B2: BD56-1310 (protein)
chain 1: QVQLVQSGAEVKKPGASVKVSCKASGYTFTTYHIHWVRQAPGQGLEWMGIINPSGGTRRYAQNFQGRVSMTGDTSASTVYMELSSLRSEDTAIYYCARELVVPAAGYMDVWGKGTTLTVSS
chain 2: SDVLTQPPSVSVAPGKTARVTCGGNNIGSTSVHWYQQKPGQAPVLVLSDDSDRPSGIPERFSGSSSGNTATLTISRVEAGDEADYYCQVFDGSTDHFYVFGSGTKVTVL
B3: BD56-1297 (protein)
chain 1: QVQLVQSGAEVKKPGSSVKVSCKASGGTFSSYDISWVRQAPGQGLEWMGRIIPILGIASYAQKFQGRLTITADESTSTAYMELSTLRSEDTGVYYCAREAANLEMATGWTYNRFDPWGQGTLVTVSS
chain 2: DIQMTQSPSSLSASVGDRVTITCRASQSISSYLNWYQQEPGKAPKLLIYAASSLQSGVPSRFSGSGSGTDFTLTISGLQPEDFATYYCQQSYNSLSTFGPGTKVDIK
B4: BD56-1290 (protein)
chain 1: QITLKESGPTLVKPTQTLTLTCTFSGFSLSTSGVGVGWIRQPPGKALEWLALIYWDDDSRYSPSLKTRLTITKDTSKNQVVLTLTNMDPVDTATYYCGHFTIDMIVGYWGQGTLVTVSS
chain 2: QSALTQPASVSGSPGQSITISCTATSIDVGAFHYVSWYQHHPGKAPKLIIFDVTNRPSGVSNRFSGSKSGNTASLTISGLQAEDEADYYCSSYTDSTVVFGGGTKLTVL
B5: BD56-1313 (protein)
chain 1: QVQLVESGGGVVQPGRSLRLSCATSGFTFRHYAMHWVRQAPGKGLEWLAVIWYDGSDKYHTASVKGRFTISRDNSNNRLYLQMNTLKVEDTAVYYCAKNFMPYCAAGACSGGVMDYWGQGTLVTVSS
chain 2: DIQMTQSPSSLSASVGDRVTITCQASQDIGNYLNWYQLKPGKAPKLLIYDASSLETGVPSRFSGSGSGTHFTFSISSLQPEDFATYYCQQYGNLPQTFGPGTKVDIK
B6: BD56-1312 (protein)
chain 1: QVQLVESGGGVVQPGRSLRLSCAASGFTFSSYSFHWVRQAPRRGLEWVAVISSDGNIKFYAESVKGRFTISRDNSRNTMYLQMNSLSAEDAAVYYCARDRDDSSGWFVDYWGQGTRVTVSS
chain 2: DIQMTQSPSSLSASVGDRVTITCRASQGIKNSLAWYQQKPGKAPKLLLYAASRLESGVPSRFSGSGSGTDYSLTISSLQPEDFATYYCQQYYGMPPITFGQGTRLEIK
B7: BD56-1286 (protein)
chain 1: QVQLQESGPGLVKPSQTLSLTCTVSGGSIGSGGYYWSWVRQHPGRGLDWIGYVFYSGSTFYNPSLRSRVTIAVDTSKNQFYLKLRSVTAADTAVYYCARDQGGSTWAPDAFDIWGQGTMVIVSS
chain 2: DIQMTQSPSSLSASAGDRITITCQASQDISNYLNWYQQKPGKAPKLLIYDASNLEKGVPSRFSGSGSGTYFTFTISSLQPEDFATYYCQQYDNLPLTFGGGTKVEIK
B8: BD56-1298 (protein)
chain 1: EVQLVESGGGLVQPGGSLRLSCAASGFTFSSYDMHWVRQATGDSLEWVSTIGTSDDTYYAGSVRGRFTISRENGKNSLYLQMNSLRAGDTAVYYCARTDYQNTLVGYFDLWGRGTLVTVSS
chain 2: DIQMTQSPSSLSASLGDRVTITCRASQYISNYLNWFQQKPGKAPKLLIYAASSLQSGVPSRFSGSGFGTDFTLTISSLQPEDFATYYCQQSYITPELIFGPGTKVDIK
B9: BD56-1316 (protein)
chain 1: EVQLLESGGGLVQPGGSLRLSCAASGFTFSTSAMSWVRQAPGKGLEWVSVIYVGGGITYYADSVRGRFTISRDDSKNTLYLQMNSLRAEDTAIYYCARRDYCDYWGQGTLVTVSS
chain 2: DIQMTQSPSTLSASVGDRVTITCRASQSISSWLAWYQQKPGKAPKLLIYKASSLESGVPSRFSGSGSGTEFTLTISSLQPDDFATYYCQQSNTYPYTFGQGTKLEIK
B10: BD56-1293 (protein)
chain 1: QVQLVESGGGVVQPGRSLRLSCAASGFTLSRYVMHWVRQAPGKGLEWVADISSDGTMTNYADSVKGRFALSRDNSKNTLYLQMNSLRDDDTAIYYCARDTDQMIVVVLDYWGQGTLVTVSS
chain 2: DIQMTQSPSSLSASVGDRVTITCRASQSLSTYLNWYQQKPGKAPKLLIYAASTLQSGVPSRFSGSGSGTDFTLTISSLQPEDFATYYCQQSYIAPPLTFGGGTKLEIK
B11: BD56-1284 (protein)
chain 1: EVYLVESGGGLIQPGGSLRLSCAASEIIVNRNYMTWVRQAPGKGLDWVSTVYSGGTTYYADSVKGRFTVSRDNSKNTMYLQMNSLRAEDTAVYYCARGELGMPFGMDVWGQGTTVTVSS
chain 2: QSVLTQPPSVSAASGQRVTISCSGSSSNIGDNYVSWYQQLPGTAPKLLIYDNDKRPSGIPDRFSGSKSGTSATLGITGLQTGDEADYYCGTWDSSLSAGLFGGGTRLTVL
B12: BD56-1308 (protein)
chain 1: EVHLVQSGAEVKKPGASVKVSCKASGHSFTSHYIHWVRQARGQGLEWMGIINPSAGSTTYAQKFQGRVTMTTDTSTSTVYMELSRLKSDDTAVYYCARDESFIPAMGWFDPWGQGTLVTVSS
chain 2: EIVLTQSPATLSLSPGERATLSCRASQSVSRYIAWYQQKPGQAPRLLIYDASNRATGIPARFSGSGSGTDFTLTISSLEPEDFTVYYCQQRSNWPPSYTFGQGTKLEIK

Key:
Experiment in all cases: pseudovirus neutralization IC50; higher = weaker neutralization
[1] = target: SARS-CoV-2 Omicron BA.1 spike pseudovirus
Method: (§1)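 Single-round VSV luciferase pseudovirus mixed with antibody dilutions for 1 h and put on Huh-7 cells for about a day; IC50 from the dose curve.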

[2] = target: SARS-CoV-2 Omicron BA.2 spike pseudovirus
Method: as §1

[3] = target: SARS-CoV-2 Omicron BA.2.75 spike pseudovirus
Method: as §1

[4] = target: SARS-CoV-2 Omicron BA.5 spike pseudovirus
Method: as §1

[5] = target: SARS-CoV-2 Omicron BQ.1.1 spike pseudovirus
Method: as §1

[6] = target: SARS-CoV-2 Omicron XBB spike pseudovirus
Method: as §1

[7] = target: SARS-CoV-2 early D614G spike pseudovirus
Method: as §1

Binder | pseudovirus neutralization IC50 [1] | pseudovirus neutralization IC50 [2] | pseudovirus neutralization IC50 [3] | pseudovirus neutralization IC50 [4] | pseudovirus neutralization IC50 [5] | pseudovirus neutralization IC50 [6] | pseudovirus neutralization IC50 [7]
B1 | 0.119 µg/mL | 0.0042 µg/mL | 0.0217 µg/mL | 3.09 µg/mL | 2.57 µg/mL | > 10 µg/mL | 0.217 µg/mL
B2 | > 10 µg/mL | > 10 µg/mL | > 10 µg/mL | > 10 µg/mL | > 10 µg/mL | > 10 µg/mL | > 10 µg/mL
B3 | 0.00777 µg/mL | 0.00308 µg/mL | 0.0071 µg/mL | > 10 µg/mL | > 10 µg/mL | > 10 µg/mL | 0.138 µg/mL
B4 | 0.00215 µg/mL | 0.00101 µg/mL | 0.00223 µg/mL | 0.00145 µg/mL | > 10 µg/mL | 0.966 µg/mL | 0.001 µg/mL
B5 | 2.56 µg/mL | 2.57 µg/mL | 1.99 µg/mL | 2.38 µg/mL | 1.71 µg/mL | 2.64 µg/mL | 1.93 µg/mL
B6 | 4.04 µg/mL | 3.38 µg/mL | 3.03 µg/mL | 3.99 µg/mL | 2.91 µg/mL | 4.2 µg/mL | 0.952 µg/mL
B7 | 0.0444 µg/mL | 0.0156 µg/mL | 0.0887 µg/mL | 0.0148 µg/mL | > 10 µg/mL | > 10 µg/mL | 0.066 µg/mL
B8 | 2.85 µg/mL | 3.22 µg/mL | 2.71 µg/mL | 2.87 µg/mL | 3.08 µg/mL | 3.43 µg/mL | 1.07 µg/mL
B9 | 0.0907 µg/mL | 0.0314 µg/mL | 0.0215 µg/mL | > 10 µg/mL | > 10 µg/mL | 1.6 µg/mL | 0.0839 µg/mL
B10 | 4.29 µg/mL | 2.75 µg/mL | 1.33 µg/mL | 2.65 µg/mL | 2.95 µg/mL | 4.12 µg/mL | > 10 µg/mL
B11 | 0.0337 µg/mL | 0.0242 µg/mL | 0.532 µg/mL | 0.13 µg/mL | 4.92 µg/mL | 3 µg/mL | 0.0046 µg/mL
B12 | 3.32 µg/mL | 3.31 µg/mL | > 10 µg/mL | > 10 µg/mL | > 10 µg/mL | > 10 µg/mL | > 10 µg/mL
